Compound potency records, mixed from different reports. Data source: NIAID ChemDB in PubChem.

Shared fields: tests in culture; agent: Influenza B virus

Two numbers with a dash give a range or band.

compound	cells	read-out	dose	method	strain or isolate	value
CCC(CC)[C@H](NC(C)=O)[C@@H]1[C@H](O)[C@@H](C(=O)O)C[C@H]1N=C(N)N	MDCK	EC50		plaque count	Memphis/3/89	0.0084 µM
CC1=C(C)C2(C)C(N)C1[C@H](C(C)C)C[C@H]2C	MDCK	EC50		plaque count		45.1 µM
Nc1ccnc(N)n1	MDCK	EC50		plaque count	B/GIFU/2/73	>910 µM
CCC(CC)[C@H](NC(C)=O)[C@@H]1[C@H](O)[C@@H](C(=O)O)C[C@H]1N=C(N)N	MDCK	EC50			LEE/40	3.2 µM
Nc1nc(Cl)cc(NCC2(CO)CCCCC2)n1	MDCK	EC50		plaque count	B/GIFU/2/73	150 µM
CC(=O)N[C@H]1[C@H]([C@H](O)[C@H](O)CO)OC(C(=O)O)=C[C@@H]1N=C(N)N	MDCK	EC50			Panama/45/90	1.3 µM
Nc1nc(Cl)cc(NCCCO)n1	MDCK	EC50		plaque count	B/GIFU/2/73	>490 µM
CCC1=C(CC)C2CCCC1C2N	MDCK	EC50		plaque count		>100 µM
Nc1nc(Cl)cc(NCC2(CO)CC(CCCc3ccccc3)C2)n1	MDCK	EC50		plaque count	B/GIFU/2/73	0.083–0.11 µM
CC12CCCC(CC1)C2N	MDCK	EC50		plaque count		>100 µM
CC(O)C1(CNc2cc(Cl)nc(N)n2)CCC1	MDCK	EC50		plaque count	B/GIFU/2/73	55 µM
CC1=C(C)C2(C)CCCC1C2N	MDCK	EC50		plaque count		12.4 µM
CCC(CC)O[C@@H]1C=C(C(=O)O)C[C@H](N)[C@H]1NC(C)=O	MDCK	EC50			B/HONG KONG/5/72	2.5 µM
NC12CC3CC(CC(C3)C1)C2	CEF	inhibition	4.7 µg/mL	plaque count	B/LEE	0%
CCNC1C2CCCC1[C@@H](C)C2	MDCK	EC50		plaque count		61.9 µM

For reference, 2 entries again:

compound,cells,read-out,dose,method,strain or isolate,value
CCC(CC)O[C@@H]1C=C(C(=O)O)C[C@H](N)[C@H]1NC(C)=O,MDCK,EC50,,,B/HONG KONG/5/72,2.5 µM
Nc1nc(Cl)cc(NCC2(CO)CCCCC2)n1,MDCK,EC50,,plaque count,B/GIFU/2/73,150 µM

Inhibition is in % at the dose shown (toxicity tests: loss of growth or viability). Lines come from different laboratories, so protocols vary. ECn is the concentration giving n% inhibition of infection, replication or growth. Blank or dashed fields: not listed here.